Results from paper PMC8828381.

Molecular target: biotinylated SARS-CoV-2-S1 (SINO BIOLOGICAL #40591-V08H-B) (SARS-CoV-2)
Experiment: SPR

In the case of “hACE2-his tag (#10108-H08B) (from UniProt Q9BYF1 18-740) (domain or fragment)”, the Kd is reported as 26 nM.
